Measured values reported in paper PMC8231256 (Molecules, 2021).
HELM strings list residues between dots; [ac] is acetyl, [am] amide, other brackets name non-standard units.

Test: general procedure: Fmoc solid-phase peptide synthesis; 2-chlorotrityl chloride (CTC) resin (1.46 mmol/g, 100–200 mesh); for amides CTC resin modified with 1,6-diaminohexane li; DIC/HOBt; HATU/NMM for 6-heptynoic acid in N-methyl peptides
[1] = whole synthesis, Method C (MeOH)
[2] = whole synthesis, analytical LC-MS, C18 Phenomenex Gemini, two solvent systems, purity at 214 nm
[3] = whole synthesis, Method A (MeOH)
[4] = whole synthesis, Method B (MeOH)
[5] = whole synthesis, Method D (MeCN)
[6] = late stage modification step, analytical LC-MS, C18 Phenomenex Gemini, two solvent systems, purity at 214 nm

Substance	isolated yield (whole synthesis) [%]	final LC-MS purity (whole synthesis, 214 nm) [%]	purity (crude or final not stated) [1]	final LC-MS purity [2] [%]	purity (crude or final not stated) [3]	final purity (method not given) (whole synthesis, 214 nm) [%]	purity (crude or final not stated) [4]	purity (crude or final not stated) [5]	step yield (late stage modification step) [%]	final LC-MS purity [6] [%]
HCC(CH2)4CO-Agl(Me)-Val-Val(Me)-Ala-Phe(Me)-OH	3	>99	Purity ≥ 99%	>95	–	–	–	–	–	–
HCC(CH2)4CO-Val-Val-Val-Agl-D-Phe-NH(CH2)6NH2	1	>94	–	>95	Purity ≥ 94%	–	–	–	–	–
PEPTIDE1{[Hept6yn].V.V.V.A.F.[NH(CH2)6NH2]}$$$$V2.0	3	–	–	>99	–	>99	Purity ≥ 99%	–	–	–
PEPTIDE1{[Hept6yn].V.V.V.A.F}$$$$V2.0	12	–	–	>99	–	>99	Purity ≥ 99%	–	–	–
PEPTIDE1{[Hept6yn].V.V.V.A.[Phe(Me)].[NH(CH2)6NH2]}$$$$V2.0	2	–	–	>99	–	>99	Purity ≥ 99%	–	–	–
PEPTIDE1{[Hept6yn].V.V.V.[Agl-Phe].[NH(CH2)6NH2]}$$$$V2.0	1	>92	–	>95	Purity ≥ 92%	–	–	Purity ≥ 99%	–	–
PEPTIDE1{[Hept6yn].V.V.V.[Ala(Me)].F.[NH(CH2)6NH2]}$$$$V2.0	3	–	–	>99	–	>99	Purity ≥ 99%	–	–	–
PEPTIDE1{[Hept6yn].V.V.[Agl-Ala].F.[NH(CH2)6NH2]}$$$$V2.0	3	–	Purity ≥ 99%	>99	–	>99	–	–	–	–
PEPTIDE1{[Hept6yn].V.V.[Agl-Ala].F}$$$$V2.0	3	–	Purity ≥ 99%	>99	–	>99	–	–	–	–
PEPTIDE1{[Hept6yn].V.V.[Val(Me)].A.F.[NH(CH2)6NH2]}$$$$V2.0	2	–	–	>99	–	>99	Purity ≥ 99%	Purity ≥ 98%	–	–
PEPTIDE1{[Hept6yn].V.[5-MeNai-Val].A.F}$$$$V2.0	4	>96	Purity ≥ 96%	>99	–	–	–	–	–	–
PEPTIDE1{[Hept6yn].V.[Agl-Val].A.F.[NH(CH2)6NH2]}$$$$V2.0	3	>96	–	>95	–	–	Purity ≥ 99%	Purity ≥ 96%	–	–
PEPTIDE1{[Hept6yn].V.[Agl-Val].A.F}$$$$V2.0	3	–	Purity ≥ 99%	>99	–	>99	–	–	–	–
PEPTIDE1{[Hept6yn].V.[Val(Me)].V.A.F.[NH(CH2)6NH2]}$$$$V2.0	2	–	–	>99	–	>99	Purity ≥ 99%	Purity ≥ 95%	–	–
PEPTIDE1{[Hept6yn].[5-MeNai-Val].V.A.F}$$$$V2.0	9	–	Purity ≥ 99%	>99	–	>99	–	–	–	–
PEPTIDE1{[Hept6yn].[Agl(Me)-Val].[Val(Me)].[Ala(Me)].[Phe(Me)].[NH(CH2)6NH2]}$$$$V2.0	3	–	Purity ≥ 99%	>99	–	>99	–	–	–	–
PEPTIDE1{[Hept6yn].[Agl-Val].V.A.F.[NH(CH2)6NH2]}$$$$V2.0	3	>94	–	>95	–	–	Purity ≥ 94%	–	–	–
PEPTIDE1{[Hept6yn].[Agl-Val].V.A.F}$$$$V2.0	3	–	Purity ≥ 99%	>99	–	>99	–	–	–	–
PEPTIDE1{[Hept6yn].[Val(Me)].V.V.A.F.[NH(CH2)6NH2]}$$$$V2.0	3	–	–	>99	–	>99	Purity ≥ 99%	Purity ≥ 97%	–	–
PEPTIDE1{[Hept6yn].[Val(Me)].[Agl(Me)-Val].[Ala(Me)].[Phe(Me)].[NH(CH2)6NH2]}$$$$V2.0	3	>99	Purity ≥ 99%	>95	–	–	–	–	–	–
PEPTIDE1{[Hept6yn].[Val(Me)].[Agl(Me)-Val].[Ala(Me)].[Phe(Me)]}$$$$V2.0	3	>99	Purity ≥ 99%	>95	–	–	–	–	–	–
PEPTIDE1{[Hept6yn].[Val(Me)].[Val(Me)].[Agl(Me)-Ala].[Phe(Me)].[NH(CH2)6NH2]}$$$$V2.0	2	>99	Purity ≥ 99%	>95	–	–	–	–	–	–
PEPTIDE1{[Hept6yn].[Val(Me)].[Val(Me)].[Agl(Me)-Ala].[Phe(Me)]}$$$$V2.0	2	>99	Purity ≥ 99%	>95	–	–	–	–	–	–
PEPTIDE1{[Hept6yn].[Val(Me)].[Val(Me)].[Val(Me)].[Ala(Me)].[Phe(Me)].[NH(CH2)6NH2]}$$$$V2.0	–	–	–	–	–	>99	Purity ≥ 99%	–	14	>99
PEPTIDE1{[Hept6yn].[Val(Me)].[Val(Me)].[Val(Me)].[Ala(Me)].[Phe(Me)]}$$$$V2.0	–	–	–	–	–	>99	Purity ≥ 99%	–	13	>99
